Reference: patent publication US20070003608A1, “Compounds, compositions and methods for the treatment of viral infections and other medical disorders” (priority 2005, published 2007)

How the values were obtained:
Format in all cases: cell-based
[1] = test system: HSV-1; experiment: HSV-1 antiviral assay, HSV DNA quantified by nucleic acid hybridization in MRC-5 cells; conditions: CC50/EC50; Table 7
[2] = test system: HIV-1; experiment: HIV-1 plaque reduction assay in HT4-6C cells; conditions: CC50/EC50; Table 6
[3] = test system: Human Cytomegalovirus (HCMV); experiment: HCMV antiviral assay, HCMV DNA quantified by DNA hybridization in MRC-5 cells
[4] = CC50/EC50, HCMV in MRC-5, Table 2
[5] = against HCMV, CEM CC50 over HCMV EC50, rapidly dividing cells

Row | Compound | Selectivity Index [1] | Selectivity Index [2] | Selective Index [3, 4] | Selective Index [3, 5]
1 | CCCCCCCCCCCCCCCCCCOCCCOP1(=O)COC(Cn2ccc(N)nc2=O)CO1 (centres unmarked) [1-O-octadecylpropanediol-3-cCDV, 1-O -octadecylpropanediol-3-cyclic cidofovir] | 970 | – | – | –
2 | CCCCCCCCCCCCCCCCOCCCOP(=O)(O)COCCn1cnc2c(N)ncnc21 [HDP-ADV, 1-O-hexadecylpropanediol-3-adefovir] | – | 813 | 65 | –
3 | CCCCCCCCCCCCCCCCCCOCCOP1(=O)COC(Cn2ccc(N)nc2=O)CO1 (centres unmarked) [1-O-octadecylpropanediol-2-cCDV, 1-O-octadecylethanediol-2-cyclic cidofovir] | 40,000 | – | – | –
4 | Nc1ccn(C[C@H]2COP(=O)(O)CO2)c(=O)n1 [cCDV, cyclic cidofovir, reference compound] | >475 | – | >2128 | >2,100
5 | Nc1ncnc2c1ncn2CCOCP(=O)(O)O [Adefovir, adefovir, reference compound] | – | >122 | >18 | –
6 | CCCCCCCCCCCCCCCCOP1(=O)CO[C@@H](Cn2ccc(N)nc2=O)CO1 (some centres unmarked) [Hexadecyl-cCDV, hexadecyl cyclic cidofovir] | – | – | 163 | –
7 | Nc1ccn(C[C@@H](CO)OCP(=O)(O)O)c(=O)n1 [CDV, cidofovir, reference compound] | >800 | – | >2174 | 1,900
8 | CCCCCCCCCCCCCCCCCCOCCOP(=O)(O)COC(CO)Cn1ccc(N)nc1=O (centres unmarked) [1-O-octadecylpropanediol-2-CDV, 1-O-octadecylethanediol-2-cidofovir] | 105,000 | – | – | –
